Data on four sequences can be found in publication PMC12462963.

Amino acid sequences for entries named in this document (tags omitted). A change or cut given only in a name is not applied to a line headed by its entry.
UniProt Q7A1N5: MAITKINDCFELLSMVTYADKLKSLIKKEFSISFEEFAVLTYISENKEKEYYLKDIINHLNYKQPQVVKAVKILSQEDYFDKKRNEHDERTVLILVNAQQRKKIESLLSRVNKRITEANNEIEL

For at least one entry, the source does not settle the construct or the ends of the probe. For some assays here: At least one verdict rests on a figure or table, not on a statement of the authors. For some assays here: Where a protein sequence is shown, tags need not be part of it.

What all share (assay): EMSA
(In general: A gel shift assay detects complexes by their altered migration in electrophoresis.)

In data set [1] the target is T1, AgrA-His6 (Staphylococcus aureus TZ0912) (UniProt Q5HEG2).
T1 sequence (looked up, limits assumed): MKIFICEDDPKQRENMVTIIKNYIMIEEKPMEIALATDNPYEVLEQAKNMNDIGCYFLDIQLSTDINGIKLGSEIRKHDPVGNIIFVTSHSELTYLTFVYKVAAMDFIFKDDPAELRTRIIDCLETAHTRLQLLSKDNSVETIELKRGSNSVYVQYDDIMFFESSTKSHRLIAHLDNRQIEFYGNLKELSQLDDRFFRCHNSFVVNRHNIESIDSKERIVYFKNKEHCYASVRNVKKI
Particulars: 50 mM acetyl phosphate; EMSA: 750 mM NaCl, 50 mM Tris-HCl pH 7.4, 0.5 mM DTT, 20 ng probe in 20 uL, 30 min 37 C; 6% gel, 0.5x TBE; recombinant protein; protein details: His6 (pET28a NdeI/XhoI); label: 5'-FAM; probe letters rebuilt from the primers and the genome.

Data set [2] concerns the target SarA-His6 (Staphylococcus aureus TZ0912) (UniProt Q7A1N5). Particulars: EMSA: 750 mM NaCl, 50 mM Tris-HCl pH 7.4, 0.5 mM DTT, 20 ng probe in 20 uL, 30 min 37 C; 6% gel, 0.5x TBE; recombinant protein; protein details: His6 (pET28a NdeI/XhoI); label: 5'-FAM; probe letters rebuilt from the primers and the genome.
The target in data set [3] is T2, ArcR-His6 (Staphylococcus aureus TZ0912) (UniProt Q2FUY1).
T2 sequence (looked up, limits assumed): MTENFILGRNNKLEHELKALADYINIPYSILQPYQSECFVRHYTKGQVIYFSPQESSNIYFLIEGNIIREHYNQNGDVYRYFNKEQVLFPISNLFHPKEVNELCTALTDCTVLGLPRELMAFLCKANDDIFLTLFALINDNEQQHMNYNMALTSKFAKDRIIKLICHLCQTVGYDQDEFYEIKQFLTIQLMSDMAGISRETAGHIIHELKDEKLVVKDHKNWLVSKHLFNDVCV
Particulars: EMSA: 750 mM NaCl, 50 mM Tris-HCl pH 7.4, 0.5 mM DTT, 20 ng probe in 20 uL, 30 min 37 C; 6% gel, 0.5x TBE; recombinant protein; protein details: His6 (pET28a NdeI/XhoI); label: 5'-FAM; probe letters rebuilt from the primers and the genome.

Regarding “AAAGCTCCAATTTCGCTATTTACTTTAATTGGACCATCTGTCATGTCTATTTCCTCCTTTTATCTTTGAATTCATTTAGAGTATAGACAATCTTCAAACGCTTACATGTGATTATATTCACATAAAGAAAGTCGAAAATTTCATATCTTTTTGTTATACAATACATAATAATGGATTTTTATACATAAATAAAGGCGTTTTGGATCAAAATATACATTTTTTATTCAAAAATACCCATAAAAACATGTTGTATAAAGTTTTTTATACAGTCAAATGAATGACTATGAATTCTTTCTTTCCATAAAAAAAACGCGTACACAAGTTAATATTTGGTAACTAACTTGAGTACACGTGATACGAAACTAATTTTTATTATTCATTTGATACATGTCTATTTAAATAATTTTGCATATACGTATTCTGCCATATCATTTGAGGC (double strand) [ParcR]”, in data set [1], the binding result is listed as “binds”.

As for “GACTAAACCAAATGCTAACCCAGAAATACAATCACTGTGTCTAATGAATAATTTGTTTTATAAACACTTTTTTGTTTACTTCTCATTTTTAATTAGTTATAATTAACTAAATAATAGAGCATTAAATATATTTAATAAAACTTATTTAATGCAAAATTATGACTAACATATCTATAATAAATAAAGATTAGATATCAATATATTATCGGGCAAATGTATCGAGCAAGATGCATCAAATAGGGAGGTTTTAAACATGGCAATTACAAAAATCAATGATTGCTTTGAGTTGTTATCAATGGTCAC (double strand) [PsarA]”, the binding result in data set [1] is on record as “binds”.

As for “GGGAGAACTAGAGATAGAATTTGGAAAAAGATTGTTGTAAATAAAATTATTAATCAATCAAAATGTTTAGAAAACAATTTACATAATGAGAATGTGAAGTTAT (double strand) [Pcas-222-123 (Table S2: -241-142)]”, the binding result in data set [2] is reported as “binds”.

For the sequence “GGGAGAACTAGAGATAGAATTTGGAAAAAGATTGTTGTAAATAAAATTATTAATCAATCAAAATGTTTAGAAAACAATTTACATAATGAGAATGTGAAGTTATTAGTAAACTTAGCAAAAGATGTTAGTTCTGGAGATAAAAGTAATAAAGAAGCACAGGCTGCAAGAATTTATTTTAAAGATTTATACGGTAAACAATTTAAACGTGGACGGTACAATGATATTATTAACTCAGGGTTGAATTATGGGTATTCGATACTTAGATCTTTTATAAAAAAAGAACTAGCTTTACATGGATTCGAAATGAGTTTAGGCATTAATCATCGTTCG (double strand) [Pcas]”, the binding result in data set [3] and in data set [2] was “binds” in each case.
